Substitutions are numbered along the chain they refer to.
B1: CAN20G1 (antibody, V domains shown)
VH: QIQLVQSGPELKKPGETVKISCKASGYTFTNDGMNWVKQAPGKGLKWMGWINTNTGEPTYVEEFKGRFAFSLETSASTAYLQINNLKNEDTATYFCYVNYDYYTMDCWGQGTSVTVSS
VL: QVVLTQSPAIMSASLGERVTMTCTASSSVISSYLHWYQQKPGSSPKLWIYSTSTLASGVPARFSGSGSGTSYSLTISSMEAEDAATYYCLQYHRSPRTFGGGTKLEIK
B2: CAN20G5 (antibody, V domains shown)
VH: B1 VH with T28S, D32S, Q39E, V61A, K65M, M105I, C107Y
VL: B1 VL with V2I, I30Y, S32T, T54N, L90H
B3: CAN20G2 (antibody, V domains shown)
VH: B1 VH with L11V, D32Q, V61T, C107F
VL: B1 VL with E17D, S32T, A61P
notes: also called muCAN20G2; muCAN20G2-2-1
B4: CAN20G8 (antibody, V domains shown)
VH: B1 VH with T28A, V61A
VL: B1 VL with T54I

What was measured:
tetanus toxoid = tetanus toxoid (UniProt P04958 2-1315); test: Western blot
[1] = molecular target: T1, Clostridium difficile toxin B (whole) (Clostridium difficile, UniProt P18177 2-2366); test: Western blot
T1 construct: mature

| Binder | binding result (tetanus toxoid) | binding result [1] |
| --- | --- | --- |
| B1 | no binding (tested: 1 µg/ml) |  |
| B2 | no binding (tested: 1 µg/ml) |  |
| B3 | no binding (tested: 1 µg/ml) | no binding (tested: 1 µg/ml) |
| B4 | no binding (tested: 1 µg/ml) |  |
